## Fitness of HIV-1 LAI Vif variants in SupT1-APOBEC3G cells

Source: Langley et al. 2025, preprint (doi:10.1101/2025.10.20.683452), supplementary data.

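A pool of vif mutants was passaged twice, 72 h each, on SupT1 cells that express APOBEC3G. Frequencies after the second round, in three biological replicates, were compared with the merged pool after the first round.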

Vif of LAI (a laboratory-adapted subtype B strain), residues 12-115; positions count from the first residue of the whole protein:
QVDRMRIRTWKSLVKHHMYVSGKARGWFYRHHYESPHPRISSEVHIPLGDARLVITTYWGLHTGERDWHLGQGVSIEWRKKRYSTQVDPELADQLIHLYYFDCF

Values are log2 enrichment relative to wild type (0); lower means weaker defence against APOBEC3G and poorer growth.
A change reads original residue, position, new residue.
All changes here are to cysteine.
The median of three replicates is given, with the replicates in brackets.
Input reads are the counts in the merged round-one pool, before selection.
Some changes are missing from the data or left out.
Replicates agree only moderately (rank correlation about 0.4-0.65); scores from under about 50 input reads tend to be too high.
The authors note that some positive scores may be noise, and some enriched variants failed when tested singly.

- D14C (input reads 41): -0.40 (-0.40 / 4.66 / -0.88)
- R15C (input reads 470): -4.55 (-6.25 / -4.55 / -2.46)
- I18C (input reads 813): -1.41 (-1.10 / -2.98 / -1.41)
- R19C (input reads 385): -3.30 (-3.61 / -3.30 / -2.15)
- T20C (input reads 190): 2.02 (4.28 / -1.20 / 2.02)
- W21C (input reads 865): -1.55 (-0.83 / -2.19 / -1.55)
- K22C (input reads 1718): -1.98 (-1.26 / -3.85 / -1.98)
- S23C (input reads 416): -2.44 (-2.36 / -3.97 / -2.44)
- L24C (input reads 522): -2.32 (-2.31 / -3.87 / -2.32)
- V25C (input reads 46): 0.56 (0.56 / 4.26 / 0.33)
- K26C (input reads 405): -3.03 (-2.86 / -4.13 / -3.03)
- H27C (input reads 877): 0.30 (2.39 / 0.30 / -0.87)
- H28C (input reads 95): 1.30 (1.30 / 4.43 / 0.56)
- Y30C (input reads 1173): -3.48 (-3.48 / -4.28 / -2.87)
- V31C (input reads 66): 0.40 (-0.22 / 3.67 / 0.40)
- K34C (input reads 473): -3.40 (-3.44 / -3.40 / -2.44)
- A35C (input reads 775): -1.75 (-1.93 / 0.02 / -1.75)
- R36C (input reads 376): -3.09 (-3.09 / -2.50 / -3.58)
- G37C (input reads 544): -1.14 (2.12 / -2.85 / -1.14)
- F39C (input reads 36): -3.01 (-2.55 / -4.57 / -3.01)
- Y40C (input reads 244): -1.50 (-1.50 / -2.43 / -1.18)
- H42C (input reads 203): -2.19 (-2.19 / 1.08 / -2.33)
- H43C (input reads 851): -4.36 (-2.84 / -4.58 / -4.36)
- S46C (input reads 52): -1.19 (0.15 / -1.19 / -1.23)
- P47C (input reads 741): -2.80 (-2.25 / -2.80 / -3.11)
- H48C (input reads 900): -2.28 (-0.85 / -2.37 / -2.28)
- I51C (input reads 794): -3.37 (-3.28 / -4.75 / -3.37)
- V55C (input reads 1120): -2.12 (0.88 / -3.24 / -2.12)
- I57C (input reads 30): -0.43 (-0.70 / 4.89 / -0.43)
- P58C (input reads 21): 1.02 (1.02 / -0.97 / 5.78)
- G60C (input reads 33): -2.90 (-2.42 / -4.40 / -2.90)
- A62C (input reads 896): -3.51 (-3.28 / -3.99 / -3.51)
- V65C (input reads 485): -0.57 (-0.57 / 1.66 / -1.50)
- T67C (input reads 971): -2.81 (-2.43 / -2.81 / -2.88)
- T68C (input reads 892): -2.13 (-2.13 / -3.75 / -1.77)
- W70C (input reads 114): -1.86 (-1.02 / -2.15 / -1.86)
- H73C (input reads 92): -2.76 (1.09 / -3.10 / -2.76)
- T74C (input reads 836): -2.03 (-1.22 / -2.90 / -2.03)
- G75C (input reads 2272): -0.35 (-0.35 / 4.19 / -0.96)